Data on 5 compounds can be found in article PMC8878748, “Broad-Spectrum Antiviral Activity of the Amphibian Antimicrobial Peptide Temporin L and Its Analogs” (International Journal of Molecular Sciences, 2022).

Conditions in all cases: therapeutic index CC50/IC50
Data set [1] concerns HSV-2.
In data set [2] the test system is MeV.
For data set [3], the system named is SARS-CoV-2.
The test system of data set [4] is HSV-1.
Data set [5] has as its system influenza virus (subtype H1N1).
Data set [6] relates to HPIV-3.

Several values for one entry are separate records, joined by “and”; a condition that tells them apart may be missing. Equal values may be shown once. Where a SMILES comes first, the peptide text is derived from it. [ ]: non-standard residue; d: D form. Aic = NC1(C(=O)O)Cc2ccccc2C1; Nle = CCCC[C@H](N)C(=O)O

Consider `CC[C@H](C)[C@H](NC(=O)[C@H](CCCNC(=N)N)NC(=O)[C@@H](CCCCN)NC(=O)[C@@H](CC(C)C)NC(=O)[C@H](Cc1ccccc1)NC(=O)[C@H](CCCCN)NC(=O)[C@H](CO)NC(=O)[C@H](Cc1ccccc1)NC(=O)[C@H](Cc1c[nH]c2ccccc12)NC(=O)[C@@H]1CCCN1C(=O)[C@@H](NC(=O)[C@@H](N)Cc1ccccc1)C(C)C)C(=O)N[C@@H](CC(C)C)C(N)=O` [TL9, H-Phe-Val-Pro-Trp-Phe-Ser-Lys-Phe-DLeu-DLys-Arg-Ile-Leu-NH2] (H-FVPWFSKF[dL][dK]RIL-NH2), for which the “TI HSV-2” value in data set [1] was 16.40. The “TI MeV” value in data set [2] is on record as 1.02. Besides, the “TI SARS-CoV-2” value in data set [3] is 9.92. Moreover, the “TI HSV-1” value in data set [4] is listed as 13.01. The “TI Influenza” value in data set [5] is listed as 13.35.

On to `CC[C@H](C)[C@H](NC(=O)[C@H](CCCNC(=N)N)NC(=O)[C@H](CCCCN)NC(=O)[C@@H](CC(C)C)NC(=O)[C@H](Cc1ccccc1)NC(=O)[C@H](CCCCN)NC(=O)[C@H](CO)NC(=O)[C@H](Cc1ccccc1)NC(=O)[C@H](Cc1c[nH]c2ccccc12)NC(=O)[C@@H]1CCCN1C(=O)[C@@H](NC(=O)[C@@H](N)Cc1ccccc1)C(C)C)C(=O)N[C@@H](CC(C)C)C(N)=O` [TL8, H-Phe-Val-Pro-Trp-Phe-Ser-Lys-Phe-DLeu-Lys-Arg-Ile-Leu-NH2] (H-FVPWFSKF[dL]KRIL-NH2), for which the “TI HSV-2” value in data set [1] worked out at 22.32. The “TI MeV” value in data set [2] is 0.60. For the same compound, the “TI SARS-CoV-2” value in data set [3] stood at 25.36. The “TI HSV-1” value in data set [4] came out at 8.96. The “TI Influenza” value in data set [5] was 6.56.

For the compound `CC[C@H](C)[C@H](NC(=O)[C@H](CCCNC(=N)N)NC(=O)C1(NC(=O)[C@@H](CC(C)C)NC(=O)[C@H](Cc2ccccc2)NC(=O)[C@H](CCCCN)NC(=O)[C@H](CO)NC(=O)[C@H](Cc2ccccc2)NC(=O)[C@H](Cc2c[nH]c3ccccc23)NC(=O)[C@@H]2CCCN2C(=O)[C@@H](NC(=O)[C@@H](N)Cc2ccccc2)C(C)C)Cc2ccccc2C1)C(=O)N[C@@H](CC(C)C)C(N)=O` [TL12, H-Phe-Val-Pro-Trp-Phe-Ser-Lys-Phe-DLeu-Aic-Arg-Ile-Leu-NH2] (H-FVPWFSKF[dL][Aic]RIL-NH2), the “TI HSV-2” value in data set [1] is listed as 15.33. The “TI MeV” value in data set [2] was 0.27. In addition, the “TI SARS-CoV-2” value in data set [3] was 12.74. Besides, in data set [4], the “TI HSV-1” value was 12.18. Also, in data set [6], the “TI HPIV-3” value is listed as 0.24. For the same compound, in data set [5], the “TI Influenza” value is listed as 11.66.

For the compound `CCCC[C@H](NC(=O)[C@@H](CC(C)C)NC(=O)[C@H](Cc1ccccc1)NC(=O)[C@H](CCCCN)NC(=O)[C@H](CO)NC(=O)[C@H](Cc1ccccc1)NC(=O)[C@H](Cc1c[nH]c2ccccc12)NC(=O)[C@@H]1CCCN1C(=O)[C@@H](NC(=O)[C@@H](N)Cc1ccccc1)C(C)C)C(=O)N[C@@H](CCCNC(=N)N)C(=O)N[C@H](C(=O)N[C@@H](CC(C)C)C(N)=O)[C@@H](C)CC` [TL6, H-Phe-Val-Pro-Trp-Phe-Ser-Lys-Phe-DLeu-Nle-Arg-Ile-Leu-NH2] (H-FVPWFSKF[dL][Nle]RIL-NH2), the “TI HSV-2” value in data set [1] was found to be 70.13. The “TI MeV” value in data set [2] was determined as 1.87. Moreover, in data set [3], the “TI SARS-CoV-2” value is 121.74 and 121.70. Moreover, the “TI HSV-1” value in data set [4] was 24.26 and 24.25. Moreover, the “TI HPIV-3” value in data set [6] worked out at 1.99. In addition, in data set [5], the “TI Influenza” value is reported as 24.26.

As for `CC[C@H](C)[C@H](NC(=O)[C@H](CCCNC(=N)N)NC(=O)[C@H](Cc1c[nH]c2ccccc12)NC(=O)[C@@H](CC(C)C)NC(=O)[C@H](Cc1ccccc1)NC(=O)[C@H](CCCCN)NC(=O)[C@H](CO)NC(=O)[C@H](Cc1ccccc1)NC(=O)[C@H](Cc1c[nH]c2ccccc12)NC(=O)[C@@H]1CCCN1C(=O)[C@@H](NC(=O)[C@@H](N)Cc1ccccc1)C(C)C)C(=O)N[C@@H](CC(C)C)C(N)=O` [TL10, H-Phe-Val-Pro-Trp-Phe-Ser-Lys-Phe-DLeu-Trp-Arg-Ile-Leu-NH2] (H-FVPWFSKF[dL]WRIL-NH2), in data set [1], the “TI HSV-2” value turned out to be 46.06. Also, in data set [2], the “TI MeV” value was determined as 0.83. Also, in data set [3], the “TI SARS-CoV-2” value amounted to 40.31. For the same compound, in data set [4], the “TI HSV-1” value was 11.78. In addition, in data set [5], the “TI Influenza” value is 9.36.
